Measurements: ChEMBL document CHEMBL5604062, “ASAP - ZIKV NS2B-NS3 protease fluorescence dose response” (2024)
Some compounds may have been tested in ways that are not shown here.

Amino acid sequences for entries named in this document (tags omitted). Residues count along the entry.
UniProt A0A024AXB9, 1-66: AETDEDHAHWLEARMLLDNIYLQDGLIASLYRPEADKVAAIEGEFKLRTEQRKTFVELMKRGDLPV

Biological target: Nonstructural protein 3 (Zika virus, UniProt A0A024AXB9)

Row | SMILES | IC50
1 | c1ccc(NC2CCN(Cc3c[nH]c4ccccc34)CC2)cc1 | > 99.5 µM
2 | O=c1[nH]c2ccccc2n1C1CCN(Cc2c[nH]c3ccccc23)CC1 | 35.4 µM
